For assay [1], the system named is Saccharomyces cerevisiae ATCC-2601 Fluconazole resistant (20 G). Put plainly: microbe, parasite or virus in culture. The following applies: ATCC2601.
Assay [2] concerns Candida albicans NTCT-885-653 Voriconazole resistant (20 G). Put plainly: microbe, parasite or virus in culture.

As to `Cc1ccc(C(C)C)c(OC(=O)C[N+](C)(C)CCCCCCCCCC[N+](C)(C)CC(=O)Oc2cc(C)ccc2C(C)C)c1` [Formula V, N1,N10-bis(2-(2-isopropyl-5-methylphenoxy)−2-oxoethyl)-N1,N1,N10,N10-tetramethyldecane-1,10-diaminium dichloride], the MIC in assay [1] and in assay [2] was 0.98 µg/mL throughout.

On to `Cc1ccc(C(C)C)cc1OC(=O)C[N+](C)(C)CCCCCCCCCC[N+](C)(C)CC(=O)Oc1cc(C(C)C)ccc1C` [Formula IV, N1,N10-bis(2-(5-isopropyl-2-methylphenoxy)−2-oxoethyl)-N1,N1,N10,N10-tetramethyldecane-1,10-diaminium dichloride], for which the MIC in assay [1] is 0.98 µg/mL.

Values taken from US12577196B2 (priority 2019, dated 2026).
